Test system: human hepatocellular carcinoma cell line (HepG2)
Assay: In-vitro cytotoxicity assay (MTT)
Assay type: cell-based
Settings: selectivity index: ratio of the HepG2 toxicity to the antiplasmodial activity
Experimental: In drug discovery approaches against malaria, one of the important strategies is the safety of active compounds against human. So, the toxicity of active compounds against P. falciparum was assessed on human hepatocellular carcinoma cell line (HepG2) by using MTT (3-[4,5-dimethylthiazol-2-yl] -2,5 diphenyl tetrazolium bromide) assay ([16]-[17]). The cells were cultured in RPMI 1640 medium enriched with 10% FBS (Fetal Bovine Serum) and incubated at 37 °C with 5% CO2 and 96% humidity. After several subcultures, cells were distributed in 96-well plates at 4,000 cells in 100 µL of culture medium and incubated for 24 h at the same condition to allow attachment of cells to the bottom of wells. Then culture medium removed and 100 µL of two-fold serially diluted concentrations of drug (400-1.56 µg/mL) added to each well in triplicate. Microtiter plates further incubated for 24 h in the same condition. Culture medium without drug was used as negative control. After the incubation time, the drug containing medium discharged and for evaluation of cell survival, 25 µL of MTT solution (4 mg/mL in PBS) added to each well and plates incubated for 3 h (in same condition). Then 100 µL of DMSO added to each well and plates were gently shaken to dissolve the formed formazan crystals. The absorbance of each well measured at 540 nm using an ELISA plate reader (Infinite M200, Tecan). The GI% (Growth Inhibition percent) was calculated using the formula Growth Inhibition% = 100 – […], where ODtest is the mean absorbance of treated cells and ODcontrol is the mean absorbance of a negative control. The cell survival of control assumed 100% and IC50 values generated from dose-response curves for each cell line.

SMILES | SI
Cc1cccc(C)c1NC(=O)C(OC(=O)c1ccc(C(C)(C)C)cc1)c1ccnc2ccccc12 (stereo not shown) [Compound 20] | 144.98
O=C(OC(C(=O)NC1CCCCC1)c1ccnc2ccccc12)c1ccccc1 (stereo not shown) [Compound 1] | 152.17
Cc1cccc(C)c1NC(=O)C(OC(=O)c1cccc2ccccc12)c1ccnc2ccccc12 (stereo not shown) [Compound 22] | 191.90
CC(C)(C)c1ccc(C(=O)OC(C(=O)NC2CCCCC2)c2ccnc3ccccc23)cc1 (stereo not shown) [Compound 2] | 72.33

— article PMC5610748, “Evaluation of Novel α-(Acyloxy)-α-(Quinolin-4-yl) Acetamides as Antiplasmodial Agents” (Iranian Journal of Pharmaceutical Research : IJPR, 2017)
